Measurements published in paper PMC9436389 (2022).
Read-outs that look alike come from different tables or passages of the source.

Experiments:
[1] = biological target: LASV GPCclamp (clamp-stabilised Lassa virus glycoprotein precursor) (Lassa virus (Josiah strain) | HIV) (UniProt P08669); assay: SEC
[2] = biological target: LASV GPCclamp (clamp-stabilised Lassa virus glycoprotein precursor) (Lassa virus (Josiah strain) | HIV) (UniProt P08669)

Substance | stoichiometry N [1] | stoichiometry N [2]
LASV GPCclamp (clamp-stabilised Lassa virus glycoprotein precursor) (from UniProt P08669;P04578) (domain or fragment) | 3 | 
LASV GPCclamp (clamp-stabilised Lassa virus glycoprotein precursor) (from UniProt P08669;P04578) |  | 3
